Anti-infective test results gathered from many reports (values: NIAID ChemDB through PubChem).

Common to all: growth or infection tests; organism: Mycobacterium tuberculosis

ECn is the concentration giving n% inhibition of infection, replication or growth.

compound	strain or isolate	read by	measure	setting	changes	tested at	result
CCC(C)S/C(N)=N/N=C/c1ccncc1	CNCTC TBC1/47		MIC				32 µM
Nc1ccnn2c(-c3ccccc3)nnc12	H37Rv	BACTEC	inhibition			12.5 µg/mL	3%
C=CCN1C(=O)/C(=C/c2ccc(O)c(OCC)c2)S/C1=N\c1nc2ccccc2s1	H37Rv		MIC				≥25 µg/mL
CO[C@H]1/C=C/O[C@@]2(C)Oc3c(C)c(O)c4c(O)c(c(/C=N/N5CCN(C)CC5)c(O)c4c3C2=O)NC(=O)/C(C)=C\C=C\[C@H](C)[C@H](O)[C@@H](C)[C@@H](O)[C@@H](C)[C@H](OC(C)=O)[C@@H]1C	M103I		MIC				0.007 µg/mL
CC1=NN(C(=O)NS(=O)(=O)c2ccc(CCNC(=O)c3nccnc3N)cc2)CC1	H37Rv	BACTEC	MIC				≥12.5 µg/mL
CC(=O)NC(C)CCC[C@@H](OC(C)=O)[C@@H](COC(C)=O)OC(C)=O	H37Rv	agar	inhibition			25 µg/mL	100%
CC(=O)/C(N=Nc1ccc(C(=O)N/N=C/C=C/c2ccc(N(C)C)cc2)cc1)=C(\C)O	H37Rv		MIC				>12.5 µg/mL
CCS/C(N)=N/N=C/c1ccc2ccccc2n1.CCS/C(N)=N/N=C/c1ccc2ccccc2n1	CNCTC TBC1/47		MIC				16 µM
COC(=O)C1=CO[C@@H](O[C@@H]2O[C@H](CO)[C@@H](O)[C@H](O)[C@H]2O)[C@H]2[C@@H]1C(=O)C[C@@H]2C	H37Rv	BACTEC	inhibition			12.5 µg/mL	-7%
CCOc1ccc(N2C(=O)/C(=C/c3ccc(O)c(OC)c3)S/C2=N\c2ccccn2)cc1	H37Rv		MIC				≥25 µg/mL
CC(=O)NCCCC[C@@H](OC(C)=O)[C@@H](COC(C)=O)OC(C)=O	H37Rv	agar	inhibition			12.5 µg/mL	100%
CCOc1ccc(N2C(=O)/C(=C/c3ccc(OC)cc3OC)S/C2=N\c2ccccn2)cc1	H37Rv		MIC				≥25 µg/mL
CCc1nc2c(F)cc(Cl)cn2c1C(=O)NCc1ccc(N2CCN(S(=O)(=O)C(F)(F)F)C=N2)c(F)c1		GFP	EC50				0.0026 µM
O=C(N/N=C/c1ccccc1)c1ccc(NS(=O)(=O)c2ccccc2)cc1			MIC				>200 µg/mL
NN1C(=O)c2cccc3cccc(c23)C1=O	H37Rv	resazurin	MIC bound				>6.25 µg/mL
O=C(NNC(=S)Nc1ccccc1)c1cc(-c2cc(F)cc(F)c2)ccc1O	H37Rv	BACTEC	inhibition			6.25 µg/mL	<90%
Cc1csc([C@](C)(O)c2nnc(Nc3ccn(Cc4c(F)cccc4F)n3)s2)n1	WILD TYPE		MIC				0.39 µg/mL
CCCCN1C(=O)C(=O)N(Cc2ccco2)C1=O	H37Rv	BACTEC	MIC bound				>12.5 µg/mL
CC(=O)OC[C@@H](OC(C)=O)[C@@H](/C=C/CC[N+](=O)[O-])OC(C)=O	H37Rv	agar	inhibition			25 µg/mL	inactive
CCOC(=O)N1CC(C)N(C(=O)OCC)CC1C	H37Rv	BACTEC	inhibition			12.5 µg/mL	0%
Nc1ccc(C(=O)N/N=C/c2ccc([N+](=O)[O-])o2)cc1	H37Rv		inhibition			12.5 µg/mL	70%
Cc1cc(=O)oc2cc(N)ccc12	591	resazurin	MIC				1000 µg/mL
O=C(N/N=C/c1ccc(Cl)cc1)c1ccc(Nc2ccccc2)cc1			MIC				>40 µg/mL
NC(=O)c1cnccn1		resazurin	MIC90	pH 6.0	Pyrazinamide-resistant		>100 µM
O=C(Nc1ccc(Br)cc1)c1cnccn1	H37Rv	BACTEC	inhibition			12.5 µg/mL	96%
NNC(=O)CCC(=O)NN			MIC				10 µg/mL
CCOC(=O)c1cnccn1		resazurin	MIC90	pH 6.0	Pyrazinamide-resistant		>657 µM
CC[C@@H](CO)NCCN[C@@H](CC)CO	17003	broth dilution	MIC80		Ethambutol-resistant		>20 µM
C[C@]1(COc2ccc(N3CCC(Oc4ccc(OC(F)(F)F)cc4)CC3)cc2)Cn2cc([N+](=O)[O-])nc2O1	UT30		MIC				0.024 µg/mL
CC(=O)OC[C@@H](OC(C)=O)[C@H](/C=C/CC(C)[N+](=O)[O-])OC(C)=O	H37Rv	agar	inhibition			25 µg/mL	100%
O=C(NCc1ccc(N2CCN(S(=O)(=O)C(F)(F)F)C=N2)c(F)c1)c1c(C(F)F)nc2cnccn12		GFP	EC50				0.064 µM
O=C(NN1C(=O)CSC1c1ccccc1)c1cc(-c2cc(F)cc(F)c2)ccc1O	H37Rv	BACTEC	inhibition			6.25 µg/mL	<90%
NCCCCCNC(=O)c1csc(Nc2ccc(Cl)cc2)n1		resazurin	inhibition			6.25 µg/mL	98%
CC/C(C)=N\NC(=O)CC(=O)N/N=C(/C)CC			MIC				200 µg/mL
CC(=O)Nc1ccc2c(c1)[nH]c1ncc(Nc3ccccc3)cc12	H37Rv	resazurin	MIC				8 µg/mL
CC(=O)/C(N=Nc1ccc(C(=O)N/N=C/c2ccccc2)cc1)=C(\C)O	H37Rv		EC50				>12.5 µg/mL
CCc1nc2nc3c(cn2c1C(=O)NCc1ccc(N2CCN(S(=O)(=O)C(F)(F)F)C=N2)c(F)c1)CCCC3		GFP	EC50				0.013 µM
COc1cc(OC)c(NC(=O)NNC(=O)C(=O)NC2CC2)cc1Cl	H37Rv	BACTEC	MIC bound				>12.5 µg/mL
O=C(NNC(=S)NC1CCCCC1)c1cc(-c2cc(F)cc(F)c2)ccc1O	H37Rv	BACTEC	inhibition			6.25 µg/mL	<90%
O=C(OCCCOC(=O)c1cnccn1)c1cnccn1		resazurin	MIC90	pH 6.6	Pyrazinamide-resistant		>347 µM
CCS/C(N)=N/N=C/c1ccc2ccccc2n1	CNCTC TBC1/47		MIC				32 µM
CCCCCCc1cc(C(=O)NN)c2ccccc2n1	H37Rv	BACTEC	MIC bound				>12.5 µg/mL
COc1ccc(NC(=S)NNC(=O)c2cc(-c3cc(F)cc(F)c3)ccc2O)cc1	H37Rv	BACTEC	inhibition			6.25 µg/mL	<90%
CCS/C(N)=N/N=C/c1nc2ccccc2n1C	CNCTC TBC1/47		MIC				32 µM
CCN(CCO)CCNc1ccc(C)c2sc3cc(Cl)ccc3c(=O)c12	H37Rv	BACTEC	MIC bound				≤12.5 µg/mL
NNC(=O)c1ccncc1	3426	resazurin	MIC				20 µg/mL
C[C@@H]1CC(C(O)CC2CC(=O)N(Cc3ccccc3)C(=O)C2)[C@@H](O)[C@@H](C)C1	H37Rv	resazurin	inhibition			6.25 µg/mL	-4%
COc1ccc(Nc2nc(C(=O)NCCCCCN)cs2)cc1		resazurin	inhibition			6.25 µM	44%
CC(=O)OC[C@@H](OC(C)=O)[C@@H](/C=C/C(O)C[N+](=O)[O-])OC(C)=O	H37Rv	agar	inhibition			12.5 µg/mL	inactive
COC(=O)C(CC(=O)NN(O)O)NC(=O)C(CSC(c1ccccc1)(c1ccccc1)c1ccccc1)NC(=O)OCc1ccccc1	H37Rv	BACTEC	MIC bound				>12.5 µg/mL
CCCC(C)S/C(N)=N/N=C/c1ccc2ccccc2n1	CNCTC TBC1/47		MIC				16 µM
C=CCN1C(=O)/C(=C/c2cccc(OC)c2O)S/C1=N\c1nc2ccccc2s1	H37Rv		MIC				≥25 µg/mL
Cc1ccc(NC(=S)NNC(=O)c2cc(-c3cc(F)cc(F)c3)ccc2O)cc1	H37Rv	BACTEC	inhibition			6.25 µg/mL	<90%
CCc1nc2ncc(Cl)cn2c1C(=O)NCc1ccc(N2CCC(S(=O)(=O)C(F)(F)F)C=N2)cc1		GFP	EC50				0.004 µM
NCCCCCCNC(=O)c1csc(Nc2ccc(Cl)cc2)n1		resazurin	inhibition			6.25 µg/mL	21%
CCc1nc2nc(OC)c(F)cn2c1C(=O)NCc1ccc(N2CCN(S(=O)(=O)C(F)(F)F)C=N2)c(F)c1		GFP	EC50				0.12 µM
O=c1c2ccc(Cl)cc2nc2nc(-c3ccccc3)c3cc(Cl)ccc3n12	H37Rv	BACTEC	inhibition			12.5 µg/mL	84%
CCS/C(N)=N/N=C/c1nc2ccccc2o1	CNCTC TBC1/47		MIC				32 µM
O=[n+]1c2ccc(Cl)cc2n([O-])c2ccc(Cl)cc21	PZA-R		MIC				>12.5 µg/mL
NNC(=O)c1ccncc1		broth dilution	MIC80				0.02 µM
S=C(NCCNC(=S)[S][Sn]([c]1ccccc1)([c]1ccccc1)[c]1ccccc1)[S][Sn]([c]1ccccc1)([c]1ccccc1)[c]1ccccc1	H37Rv	BACTEC	MIC				0.8 µg/mL
COc1nc2ccc(Br)cc2cc1[C@@H](c1ccccc1)[C@@](O)(CCN(C)C)c1cccc2ccccc12	35820	broth dilution	MIC80		Streptomycin-resistant		<2 µM
CCOc1ccc(C(=O)NN=C(C)C)cc1			MIC				<40 µg/mL
CC(=O)/C(N=Nc1ccc(C(=O)N/N=C/c2ccc(N(C)C)cc2)cc1)=C(\C)O	H37Rv		EC50				>12.5 µg/mL
CCc1nc2ccc(C#N)cn2c1C(=O)NCc1ccc(N2CCN(S(=O)(=O)C(F)(F)F)C(OC)=N2)cc1		GFP	EC50				0.16 µM
CCOC(=O)[C@@H]1ON2O[C@H](OC3CCCCC3c3ccccc3)C[C@H]3OC(=O)C1C32		BACTEC	inhibition			0.5 µM	0%
Nc1ccccc1NC(=S)C(=O)Nc1ccc2ccccc2c1	H37Rv		MIC				333 µM
CCC1=C(C(=O)NCc2cc(F)c(N3CCN(S(=O)(=O)C(F)(F)F)C=N3)c(F)c2)C2C=C(Cl)C=NC2=N1		GFP	EC50				0.005 µM
Cc1ccc(NC(=O)C(=S)Nc2ccc(C)cc2)cc1	H37Rv		MIC				37 µM
CCOC(=O)NNC(=O)c1ccccc1			MIC				>200 µg/mL
NC(=O)C(=S)Nc1ccccc1	H37Rv		MIC				37 µM
O=[N+]([O-])c1ccc(C2=NOC(c3ccc(N4CCN(Cc5ccccc5)CC4)cc3)C2)o1	HN878		MIC				0.012 µg/mL
CNCCCNC(=O)c1c(O)c2ccccc2n(C)c1=O	H37Rv	resazurin	inhibition			6.25 µg/mL	-33%
O=C(NCc1ccc(N2CCN(Cc3ccccc3)CC2)cc1)c1ccc([N+](=O)[O-])o1	H37Rv		MIC				0.012 µg/mL
N#CNNC(=O)CCCCC(=O)NNC#N			MIC				>40 µg/mL
C[C@@H]1CN(c2c(F)c(N)c3c(=O)c(C(=O)O)cn(C4CC4)c3c2F)C[C@H](C)N1			MIC90				0.25–0.5 µg/mL
NC(=O)C(=S)Nc1ccc(N)cc1	H37Rv		MIC				1000 µM
CC1COc2c(N3CCN(C)CC3)c(F)cc3c(=O)c(C(=O)O)cn1c23			MIC50				1 µg/mL
O=C1OC2(CC1n1cnc3ccccc3c1=O)C(=O)Nc1ccccc12	H37Rv	BACTEC	MIC bound				>12.5 µg/mL
CC(=O)NNS(=O)(=O)c1ccc(Cl)cc1			MIC				>200 µg/mL
CCOc1ccc(N2C(=O)/C(=C/c3ccncc3)S/C2=N\c2ccccn2)cc1	H37Rv		MIC				≥25 µg/mL
O=C(NC1CCCCC1)C(=S)Nc1ccccc1O	H37Rv		MIC				24.7 µM
N[C@@H]1CN(c2c(F)cc3c(=O)c(C(=O)O)cn([C@@H]4C[C@@H]4F)c3c2Cl)CC12CC2			MIC50				0.12–1 µg/mL
O=C(OCCOC(=O)c1cnccn1)c1cnccn1		resazurin	MIC90	pH 6.0	Pyrazinamide-resistant		>365 µM
CC(C)(C)OC(=O)N1N=NC2C3OC(CC3=O)C21	H37Rv	BACTEC	inhibition			12.5 µg/mL	2%
CCOc1ccc(N2C(=O)/C(=C/c3ccc(Cl)cc3Cl)S/C2=N\c2ccccn2)cc1	H37Rv		MIC				≥25 µg/mL
CC(=O)N[C@H]1[C@H](OC[C@H]2O[C@@H](n3ccc(N)nc3=O)[C@@H](O)[C@@H]2O)O[C@H](CO)[C@@H](O[C@@H]2O[C@H](CO)[C@@H](O)[C@H](O)[C@H]2NC(C)=O)[C@@H]1O	H37Rv	resazurin	inhibition			6.25 µg/mL	-12%
O=C(N/N=C/c1ccccc1O)c1ccccc1			MIC				10 µg/mL

7 of the rows above, restated:

CCOc1ccc(C(=O)NN=C(C)C)cc1 ; measure: MIC ; result: <40 µg/mL
N#CNNC(=O)CCCCC(=O)NNC#N ; measure: MIC ; result: >40 µg/mL
CC(=O)OC[C@@H](OC(C)=O)[C@H](/C=C/CC(C)[N+](=O)[O-])OC(C)=O ; strain or isolate: H37Rv ; read by: agar ; measure: inhibition ; tested at: 25 µg/mL ; result: 100%
Nc1ccccc1NC(=S)C(=O)Nc1ccc2ccccc2c1 ; strain or isolate: H37Rv ; measure: MIC ; result: 333 µM
O=C(NNC(=S)Nc1ccccc1)c1cc(-c2cc(F)cc(F)c2)ccc1O ; strain or isolate: H37Rv ; read by: BACTEC ; measure: inhibition ; tested at: 6.25 µg/mL ; result: <90%
O=C(Nc1ccc(Br)cc1)c1cnccn1 ; strain or isolate: H37Rv ; read by: BACTEC ; measure: inhibition ; tested at: 12.5 µg/mL ; result: 96%
CCOC(=O)c1cnccn1 ; read by: resazurin ; measure: MIC90 ; setting: pH 6.0 ; changes: Pyrazinamide-resistant ; result: >657 µM

Inhibition is in % at the dose shown (toxicity tests: loss of growth or viability). a–b is a range or a potency band. MIC50, MIC90 and the like: level of inhibition, or share of isolates inhibited. MIC bound: limit read from a one-dose screen. For "inactive" no cut-off is given. Blank or dashed fields: not listed here. Neighbouring rows are from separate reports.